A mixed list of measured activities; the numbers were collected in NIAID ChemDB.

Shared fields: growth or infection tests; organism: Human cytomegalovirus; cell line: MRC-5; measure: EC50

ECn is the concentration giving n% inhibition of infection, replication or growth.

Nc1nc2c(ncn2[C@@H]2O[C@@H](CO)[C@H](O)[C@H]2O)c(=O)[nH]1 ; strain: AD169 ; method: cytopathic effect ; value: >1000 µM
Nc1ncnc2c1ncn2OCC/C=C\P(=O)(O)O ; strain: AD169 ; method: plaque count ; value: >300 µM
OC[C@@H]1O[C@H](n2c(Br)nc3cc(Cl)c(Cl)cc32)C[C@H]1O ; strain: AD169 ; method: hybridisation ; value: 26 µM
COc1cc(O)c2c(c1)C(=O)c1cc(C)cc(O)c1C2=O ; strain: AD169 ; method: plaque count ; value: >35.2 µM
Nc1nc2c(ncn2COC(CO)CO)c(=O)[nH]1 ; strain: AD169 ; method: plaque count ; value: 1.2 µM
O=C(NCCc1c[nH]c2ccccc12)C1=Cc2ccncc2CC1 ; strain: C8805-37 ; method: plaque count ; value: 0.3 µM
NC(=S)c1cn([C@@H]2O[C@H](CO)[C@@H](O)[C@@H]2O)c2ncnc(N)c12 ; strain: AD169 ; method: plaque count ; value: 1.5 µM
O=c1ccn([C@@H]2O[C@@H](CO)[C@H](O)[C@H]2O)c(=O)[nH]1 ; strain: AD169 ; method: cytopathic effect ; value: >1000 µM
CC(C)(C)C(=O)OCOP(=O)(COCCn1cnc2c(N)ncnc21)OCOC(=O)C(C)(C)C ; strain: AD169 ; method: plaque count ; value: 65 µM
CC(C)Nc1nc2cc(Cl)c(Cl)cc2n1[C@H]1O[C@@H](CO)[C@H](O)[C@@H]1O ; strain: P ; method: plaque count ; value: 0.69 µM
Nc1ccn(OC(/C=C/P(=O)(O)O)CO)c(=O)n1 ; strain: AD169 ; method: plaque count ; value: >300 µM
C=C(/C=C/P(=O)(O)O)Cn1cnc2c(=O)[nH]c(N)nc21 ; strain: AD169 ; method: cytopathic effect ; value: >250 µM
CCCCNc1nc2cc(Cl)c(Cl)cc2n1[C@H]1C[C@@H](CO)[C@H](O)[C@@H]1O ; value: 1.1 µM
OC[C@@H]1O[C@H](n2c(NC3CCCC3)nc3cc(Cl)c(Cl)cc32)C[C@H]1O ; strain: AD169 ; method: hybridisation ; value: 0.1 µM
C[C@H]1O[C@@H](n2c(NC3CC3)nc3cc(Cl)c(Cl)cc32)[C@H](O)[C@@H]1O ; strain: AD169 ; value: 1.1 µM
Cc1cn([C@H]2C[C@@H](O)[C@H](CO)O2)c(=O)[nH]c1=O ; strain: AD169 ; method: cytopathic effect ; value: >1000 µM
NC1=Nc2c(ncn2CCCCC(F)(F)P(=O)(O)O)C(=O)C1 ; method: cytopathic effect ; value: >1000 µM
CCCCCCCCCCCCCCCCCCCCCCSC[C@H](O)COP(=O)(O)C(=O)O ; value: 2.6 µM
Cc1cc(=O)c2c(O)c3c(O)cc(O)c4c5c(O)cc(O)c6c(O)c7c(=O)cc(C)cc7c(c65)c(c2c1)c34 ; strain: AD169 ; method: plaque count ; value: 5.7 µM
N/C(=N/O)c1cn([C@@H]2O[C@H](CO)[C@@H](O)[C@@H]2O)c2ncnc(N)c12 ; strain: AD169 ; method: plaque count ; value: 22 µM
NC(=O)c1c(Cl)c(-c2cccnc2)n2c1C(O)CCC2 ; strain: DAVIS ; method: plaque count ; value: 0.015 µM
CC#Cc1cn([C@@H]2O[C@H](COP(=O)(O)Oc3ccccc3)[C@@H](O)[C@@H]2O)c(=O)[nH]c1=O ; strain: AD169 ; method: plaque count ; value: >100 µM
Nc1nc2c(ncn2COC(CO)CO)c(=O)[nH]1 ; strain: Ganciclovir-resistant ; method: plaque count ; value: 191 µM
CC#Cc1cn([C@@H]2O[C@H](COP(=O)(NCCC)Oc3ccccc3)[C@@H](O)[C@@H]2O)c(=O)[nH]c1=O ; strain: AD169 ; method: plaque count ; value: >100 µM
C=C(/C=C/P(=O)(O)O)Cn1cnc2c(=O)[nH]c(N)nc21 ; strain: AD169 ; method: plaque count ; value: >300 µM
Nc1nc2c(ncn2[C@H]2C[C@@H](O)[C@H](CO)O2)c(=O)[nH]1 ; strain: AD169 ; method: cytopathic effect ; value: >1000 µM
O=c1[nH]c(=S)n([C@@H]2O[C@H](CO)[C@@H](O)[C@@H]2O)cc1I ; strain: AD169 ; method: plaque count ; value: >259 µM
CCCCCCCCCCCCSC[C@H](O)COP(=O)(O)C(=O)O ; value: 6.5 µM
O=C1c2cccc(O)c2C(=O)c2c(O)cc(CO)cc21 ; strain: AD169 ; method: plaque count ; value: >37 µM
CCCCCCCCSC[C@H](O)COP(=O)(O)C(=O)O ; value: 45 µM
O=c1[nH]c(=O)n([C@H]2C[C@H](O)[C@@H](CO)O2)cc1F ; strain: AD169 ; method: plaque count ; value: >362 µM
NC1=Nc2c(ncn2CCC/C=C/P(=O)(O)O)C(=O)C1 ; method: cytopathic effect ; value: 48 µM
CC(=O)Nc1ccc(Nc2cc(S(=O)(=O)O)c(N)c3c2C(=O)c2ccccc2C3=O)cc1 ; method: luciferase ; value: 205 µM
OC[C@H]1C[C@]1(CO)Cn1c(Br)nc2cc(Cl)c(Cl)cc21 ; value: 2 µg/mL
Nc1nc(=S)n([C@H]2C[C@H](O)[C@@H](CO)O2)cc1I ; strain: AD169 ; method: plaque count ; value: >283 µM
CC#Cc1cn([C@@H]2O[C@H](COP(=O)(O)Oc3c(C)cccc3C)[C@@H](O)[C@@H]2O)c(=O)[nH]c1=O ; strain: AD169 ; method: plaque count ; value: >10 µM
O[C@@H]1[C@H](O)[C@H](O)CO[C@H]1n1c(Br)nc2cc(Cl)c(Cl)cc21 ; strain: AD169 ; value: 0.7 µM
Cc1cn([C@@H]2O[C@H](CO)[C@@H](O)[C@@H]2O)c(=S)[nH]c1=O ; strain: AD169 ; method: plaque count ; value: >365 µM
NC(=S)c1cn([C@H]2C[C@H](O)[C@@H](CO)O2)c2ncnc(N)c12 ; strain: AD169 ; method: plaque count ; value: 4 µM
CC#Cc1cn([C@@H]2O[C@H](COP(=O)(O)Oc3ccc(Cl)cc3)[C@@H](O)[C@@H]2O)c(=O)[nH]c1=O ; strain: AD169 ; method: plaque count ; value: >10 µM
CCCCCCCCCCCCCCCCCCSC[C@H](O)COP(=O)(O)C(=O)O ; value: 0.71 µM
O=c1[nH]c(=S)n([C@H]2C[C@H](O)[C@@H](CO)O2)cc1I ; strain: AD169 ; method: plaque count ; value: >271 µM

Neighbouring rows are from separate reports.